Where two headings read alike, the source gives them in different places.
Biological target: NA (neuraminidase) of A/Denmark/524/09 (H1N1) (Influenza A virus (A/California/04/2009(H1N1)), UniProt C3W5S3)
Details: substrate MUNANA, mean ± SD of five measurements

SMILES	IC50 (read-out: NA enzyme inhibition IC50 ±SD ^b (nM) / Zanamivir) [nM]	IC50 (read-out: NA enzyme inhibition IC50 ±SD ^b (nM) / Oseltamivir carboxylate) [nM]
CC(=O)N[C@H]1[C@H]([C@H](O)[C@H](O)CO)OC(C(=O)O)=C[C@@H]1N=C(N)N [zanamivir, 4-guanidino-Neu5Ac2en]	1.3 ± 0.15	
CCC(CC)O[C@@H]1C=C(C(=O)O)C[C@H](N)[C@H]1NC(C)=O [oseltamivir carboxylate, [3R, 4R, 5S]-4-acetamido-5-amino-3-[1-ethylpropoxy]-1-cyclohexene-1-carboxylic acid]		5 ± 0.8
